From the supplement of paper PMC9931576
Human monoclonal antibodies against the spike receptor-binding domain (heavy:light variable regions). IC50 against pseudoviruses bearing the spike of naturally observed variants; lower = stronger; >10 µg/ml means not reached at the top dose. No active / inactive call. The stated detection limit is 0.0005 µg/ml; values near or below 0.001 µg/ml lie at the floor of the assay.

Legend:
Experiment in all cases: pseudovirus neutralization IC50; higher = weaker neutralization
[1] = target: SARS-CoV-2 Omicron BA.1 spike pseudovirus
Description: (§1)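 Single-round VSV luciferase pseudovirus mixed with antibody dilutions for 1 h and put on Huh-7 cells for about a day; IC50 from the dose curve.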

[2] = target: SARS-CoV-2 Omicron BA.2 spike pseudovirus
Description: as §1

[3] = target: SARS-CoV-2 Omicron BA.2.75 spike pseudovirus
Description: as §1

[4] = target: SARS-CoV-2 Omicron BA.5 spike pseudovirus
Description: as §1

[5] = target: SARS-CoV-2 Omicron BQ.1.1 spike pseudovirus
Description: as §1

[6] = target: SARS-CoV-2 Omicron XBB spike pseudovirus
Description: as §1

[7] = target: SARS-CoV-2 early D614G spike pseudovirus
Description: as §1

B1: BD-467 (protein)
chain 1: EVQLVESGGGLVQPGGSLRLSCAASGITVSSNYMTWVRQAPGKGLEWVSLIYSGGSTYYADSVKGRFTISRDNSKNTLHLQMNSLRGEDTAVYYCARDLVAFGMDVWGQGTTVTVSS
chain 2: IQLTQSPSSLSASVGDRVTITCRASQGISSYLAWYQQKPGKAPKLLIYAASTLQGGVPSRFSGSGSGTDFTLTISSLQSEDSATYYCQQLNSDTPTFGPGTKVEIK
- pseudovirus neutralization IC50 [1]: 3.25 µg/mL
- pseudovirus neutralization IC50 [2]: 5.18 µg/mL
- pseudovirus neutralization IC50 [3]: 4.13 µg/mL
- pseudovirus neutralization IC50 [4]: 2.81 µg/mL
- pseudovirus neutralization IC50 [5]: > 10 µg/mL
- pseudovirus neutralization IC50 [6]: > 10 µg/mL
- pseudovirus neutralization IC50 [7]: 0.0058 µg/mL

B2: BD56-1905 (protein)
chain 1: QVQLVQSGAEVKKPGSAVTVSCKASGGTFSRFAINWVRQAPGQGLEWMGRIITISGASNYPQKFQGRVTITADKSTSTAYMELSSLRSEDTAVYYCASPYGANSVYGYLWDHYYGMDVWGQGTTVTVSS
chain 2: QSALTQPASVSGSPGQSITISCTGTSSDVGGYNYVSWYQQHPGKAPKLMIYDVSNRPSGISNRFSGSKSGNTASLTISGLQAEDEADYYCSSYTSSSTLYVFGTGTKVTVL
- pseudovirus neutralization IC50 [1]: > 10 µg/mL
- pseudovirus neutralization IC50 [2]: 0.269 µg/mL
- pseudovirus neutralization IC50 [3]: > 10 µg/mL
- pseudovirus neutralization IC50 [4]: > 10 µg/mL
- pseudovirus neutralization IC50 [5]: > 10 µg/mL
- pseudovirus neutralization IC50 [6]: > 10 µg/mL
- pseudovirus neutralization IC50 [7]: 0.00318 µg/mL

B3: BD56-1909 (protein)
chain 1: QVHLVQSGAEVKKPGSSVKVSCMASGGSFSSSAISWVRQAPGQGLEWMGRIIPLLGVAYYVQKFQDRVTFSADESSNTAYMDLTSLRSEDTAVYYCARVPHILTGYYSGFAFDIWGQGTMVIVSS
chain 2: EIVLTQSPGTLSLSPGERATLSCRASQSVSSSHLAWYQQKPGQAPRLLIYGASSRATGIPDRFSGSGSGTDFTLTISRLEPEDFAVFYCQQYNSSPYTFGQGTRLEIK
- pseudovirus neutralization IC50 [1]: 0.0369 µg/mL
- pseudovirus neutralization IC50 [2]: 0.0576 µg/mL
- pseudovirus neutralization IC50 [3]: 0.00522 µg/mL
- pseudovirus neutralization IC50 [4]: > 10 µg/mL
- pseudovirus neutralization IC50 [5]: > 10 µg/mL
- pseudovirus neutralization IC50 [6]: > 10 µg/mL
- pseudovirus neutralization IC50 [7]: 0.000945 µg/mL

B4: BD56-1910 (protein)
chain 1: QITLKESGPTLVKPTQTLTLTCTFSGFSLSTRAVGVGVGWIRQPPGKALEWLALIYWDDDKRYSPSLESRLTITKDPSKNQVVLTMTNMDPVDTATYFCARHGIEVVFDYWGQGTVVTVSS
chain 2: QSALTQPRSVSGSPGQSVTISCTATTGDVGDYVYVSWYQQHPGKAPKLLIYDVTKRPSGVPDRFSGSKSGNTASLTISGLQTEDEAHFFCCSYTGTSVLFGGGTKLTVL
- pseudovirus neutralization IC50 [1]: 0.012 µg/mL
- pseudovirus neutralization IC50 [2]: 0.00102 µg/mL
- pseudovirus neutralization IC50 [3]: 0.00464 µg/mL
- pseudovirus neutralization IC50 [4]: 0.000714 µg/mL
- pseudovirus neutralization IC50 [5]: > 10 µg/mL
- pseudovirus neutralization IC50 [6]: > 10 µg/mL
- pseudovirus neutralization IC50 [7]: 0.00321 µg/mL

B5: BD56-1912 (protein)
chain 1: QVQLVQSGTEVKRPGSSVKVSCKASEDTFNSFAISWVRQAPGQRLEWIGRIIPIRGPAIYAQKFQGRVTISADKSTTTAYMELSSLRSEDTAVYYCARDEAVGSFYGSGSYYVDYWGQGTLVTVSS
chain 2: QSALTQPASVSGSPGQSITISCTGTGSDVGGYNHVSWYQQHPGKAPKLLIYDVTNRPSGVSNRFSGSKSGNTASLTISGLQADDEADYYCNSYTSGSTLYVFGTGTTVTVL
- pseudovirus neutralization IC50 [1]: 0.204 µg/mL
- pseudovirus neutralization IC50 [2]: 0.134 µg/mL
- pseudovirus neutralization IC50 [3]: 0.00997 µg/mL
- pseudovirus neutralization IC50 [4]: 7.48 µg/mL
- pseudovirus neutralization IC50 [5]: > 10 µg/mL
- pseudovirus neutralization IC50 [6]: 1.89 µg/mL
- pseudovirus neutralization IC50 [7]: 0.0106 µg/mL

B6: BD56-1925 (protein)
chain 1: QVQLQESGPGLVKPSGTLSLTCAVSGGSINDRNWWSWVRQTPGKGLEWIGEIYHTGSASYNPSLKSRVTMSVDKSKNSFSLQLTSVTAADTAVFYCARSSGILDCWGQGTLVTVSS
chain 2: DIQMTQSPSSLSASVGDSVTITCRASQDISNSVAWYQQRPGKAPKLLLYAASTLESGVPSRFSGSGSGTDYTLSISSLQPEDFATYFCQQYYSTRTFGQGTKVDIK
- pseudovirus neutralization IC50 [1]: 0.00391 µg/mL
- pseudovirus neutralization IC50 [2]: 0.00202 µg/mL
- pseudovirus neutralization IC50 [3]: 0.00557 µg/mL
- pseudovirus neutralization IC50 [4]: 0.296 µg/mL
- pseudovirus neutralization IC50 [5]: 1.59 µg/mL
- pseudovirus neutralization IC50 [6]: > 10 µg/mL
- pseudovirus neutralization IC50 [7]: 0.00574 µg/mL

B7: BD56-1927 (protein)
chain 1: QVQLVQSGAEVKKPGSSVKVSCKASGGTFSSFAINWVRQAPGQGLEWMGRIIPIVDVRNYAQKFQGRVTIAADRSTSTAYMELSSLSSEDTAVYYCARDPRPVVTMGLGDHGMDVWGQGTAVTVSS
chain 2: DIVMTQSPLSLPVTPGEPASISCRSSQSLLQSNGYNYLDWYLQKPGQSPHLLIYLGSNRASGVPDRFSGSGSGTDFTLKISRVEAEDVGIYYCMQALQTLRTFGQGTKLEIK
- pseudovirus neutralization IC50 [1]: > 10 µg/mL
- pseudovirus neutralization IC50 [2]: > 10 µg/mL
- pseudovirus neutralization IC50 [3]: > 10 µg/mL
- pseudovirus neutralization IC50 [4]: > 10 µg/mL
- pseudovirus neutralization IC50 [5]: > 10 µg/mL
- pseudovirus neutralization IC50 [6]: > 10 µg/mL
- pseudovirus neutralization IC50 [7]: 0.00748 µg/mL

B8: BD56-1931 (protein)
chain 1: QLQLVQSGAEVKKPGASVKVSCKASGFTFTHYGISWVRQAPGQGLEWMGWLSVYNGNTNDAQKGQGRVTMTKDTSTSTAYLELRSLRSDDTAVYYCARVQEYYDRSGNPQWDAVDLWGQGTMVTVSS
chain 2: DIVMTQSPDSLAVSLGERATINCKSSQSVLYSSNNKNYLAWYQQKPGQPPKLLIYWASTRESGVPDRFSGSGSGTDFTLTISSLQAEDVAVYYCQQYSISPWTFGQGTKVEIK
- pseudovirus neutralization IC50 [1]: > 10 µg/mL
- pseudovirus neutralization IC50 [2]: > 10 µg/mL
- pseudovirus neutralization IC50 [3]: > 10 µg/mL
- pseudovirus neutralization IC50 [4]: > 10 µg/mL
- pseudovirus neutralization IC50 [5]: > 10 µg/mL
- pseudovirus neutralization IC50 [6]: > 10 µg/mL
- pseudovirus neutralization IC50 [7]: 0.0792 µg/mL

B9: BD56-1932 (protein)
chain 1: QVQLVQSGAELKEPGSSVKVSCQASGGTFSSYAFSWVRQAPGQGLEWMGRIIPILSTTNYAQNLQGRLTIAADKSTTTVYMELSSLRSEDTAVYYCAKHLHDYGDDLLYKYIMDVWGQGTTVTVSS
chain 2: DIQMTQSPSTLSASVGDRVTITCRASQTISNWLAWYQQKPGKAPKLLISKASNLQSGVPSRFSGSGSGTEFTLTISSLQPDDFATYYCQQYNTYSPFGQGTKVEIK
- pseudovirus neutralization IC50 [1]: 0.188 µg/mL
- pseudovirus neutralization IC50 [2]: 0.148 µg/mL
- pseudovirus neutralization IC50 [3]: 0.0675 µg/mL
- pseudovirus neutralization IC50 [4]: 0.0509 µg/mL
- pseudovirus neutralization IC50 [5]: 0.179 µg/mL
- pseudovirus neutralization IC50 [6]: 0.25 µg/mL
- pseudovirus neutralization IC50 [7]: 0.002 µg/mL

B10: BD56-1934 (protein)
chain 1: QVQLVQSGAEVKKPGSSVKVSCKASGGTFSKYAISWVRQAPGQGPEWMGRIIPMFGMANSAQKFQGRVTISADKSTSTAYMELSSLRSEDTAVYYCATSPFYPDSSGYYLDYWGQGTLVTVTS
chain 2: DIQMTQSPSSLSASVGDRVTITCRASQDINNYLAWYQQKPGKPPKLLIHGVSTLQSGVPSRFSGSGSGTDYALTISSLQPEDFAAYYCQQYYSAPRTFGPGTKVDIK
- pseudovirus neutralization IC50 [1]: 0.248 µg/mL
- pseudovirus neutralization IC50 [2]: 0.218 µg/mL
- pseudovirus neutralization IC50 [3]: 0.00401 µg/mL
- pseudovirus neutralization IC50 [4]: > 10 µg/mL
- pseudovirus neutralization IC50 [5]: > 10 µg/mL
- pseudovirus neutralization IC50 [6]: > 10 µg/mL
- pseudovirus neutralization IC50 [7]: 0.0046 µg/mL

B11: BD57-0101 (protein)
chain 1: QVQLVQSGAEVKKPGSSVKVSCKASRGTFSSYSITWVRQAPGQGLEWMGTIIPILGIANYAQKFQDRVTITADKSTSTAYMELSSLRSEDTAMFYCARDQVADSGSPSWFDPWGQGTLVTVSS
chain 2: QSVLTQPPSVSGAPGQRVTISCTGSNSNIGAGYDVHWYQQFPGTAPKLLIYANKNRPSGVPDRFSGSKSGTSASLGITGLQAEDEADYYCQSYDSSLSDVVFGGGTTLTVL
- pseudovirus neutralization IC50 [1]: 0.0499 µg/mL
- pseudovirus neutralization IC50 [2]: 0.0202 µg/mL
- pseudovirus neutralization IC50 [3]: 0.0309 µg/mL
- pseudovirus neutralization IC50 [4]: 0.917 µg/mL
- pseudovirus neutralization IC50 [5]: > 10 µg/mL
- pseudovirus neutralization IC50 [6]: 6.06 µg/mL
- pseudovirus neutralization IC50 [7]: 0.096 µg/mL

B12: BD57-0104 (protein)
chain 1: EVQLVESGGGLVKPGGSLRLSCVASGFIFSDYSMNWVRQAPGKGLEWVSSISRSDTRTYYADSVRGRFTISRDNAKNALYLQMNSLRAEDTAVYYCARGDLWGFDLVMEVAGHFDYWGQGTLVTVSS
chain 2: EIVLTQSPGTLSLSPGESATLSCRASQSVSSSSLAWYQQKPGQAPRLLIYGAYSRATGVPDRFSGSGSGTDFTLTISRLEPEDFAVYYCQQFGSSPLYTFGQGTKLEIK
- pseudovirus neutralization IC50 [1]: 6.67 µg/mL
- pseudovirus neutralization IC50 [2]: 5.19 µg/mL
- pseudovirus neutralization IC50 [3]: 4.3 µg/mL
- pseudovirus neutralization IC50 [4]: 4.83 µg/mL
- pseudovirus neutralization IC50 [5]: > 10 µg/mL
- pseudovirus neutralization IC50 [6]: > 10 µg/mL
- pseudovirus neutralization IC50 [7]: > 10 µg/mL
